Patent US7968297B2, “Method for identification, isolation and production of antigens to a specific pathogen” (Intercell AG, priority 2001, dated 2011)

Columns and labels:
[1] = system: purified IgGs from human sera; assay: Ribosome display screening with purified human IgGs; format: binding
[2] = system: antibodies in human serum; assay: Bacterial surface display library screening by MACS with biotinylated human serum; format: binding; conditions: for No. of selected clones per ORF and screen: F: Bacterial surface display: F, LSA50/6 library in lamB with patient sera P1 (1105); for No. of selected clones per ORF and screen: C: Bacterial surface display: C; for No. of selected clones per ORF and screen: B: Bacterial surface display: B; for No. of selected clones per ORF and screen: A: Bacterial surface display: A, LSE150 library in fhuA with patient sera 2 (957)
[3] = identified by bacterial surface display
[4] = LSE70 library in lamB with patient sera 1 (551)
[5] = ORFs selected by bacterial surface display (screens A, B, C; some also D)
[6] = LSE70 library in lamB with patient sera 2 (1420)

CRF0006 (IFISTCGCSTTSAWKAEVLPLRVRFPSPAPF)
Location of identified Immunogenic region ([1]; ORFs selected by ribosome display only (screen D)): aa 10-22
No. of selected clones per ORF and screen: D ([1]; Ribosome display: D, LSE150 in pMAL4.31 with P2 (1235)): D: 3

B1: ORF2958 (protein, listed as Staphylococcus aureus)
chain: MKMKNIAKISLLLGILATGVNTTTEKPVHAEKKPIVISENSKKLKAYYNQPSIEYKNVTGYISFIQPSIKFMNIIDGNSVNNIALIGKDKQHYHTGVHRNLNIFYVNEDKRFEGAKYSIGGITSANDKAVDLIAEARVIKEDHTGEYDYDFFPFKIDKEAMSLKEIDFKLRKYLIDNYGLYGEMSTGKITVKKKYYGKYTFELDKKLQEDRMSDVINVTDIDRIEIKVIKA
No. of selected clones per ORF and screen: F [2]: F: 1
Location of identified Immunogenic region [2, 3]: aa 154-168

B2: CRF2155 (protein)
chain: ILSAALSTPALLNNTSILPNCSFMSDTKSTTCCSLALSTLYAFALSPLLLILSTVSDTASAMSTANTYAPY
No. of selected clones per ORF and screen: F [2]: F: 9
Location of identified Immunogenic region [2, 3]: aa 54-66

B3: CRF2180 (protein)
chain: PGAIVSGPYSVNSLIGSFVISSFGSPLLIITPVNGFFSVGVVIVFSPFCPSLVTFSVPGAKSGLNLRSFLNGISSTFFSNSVIVFGASGVKVNSEPFKSVLIQPFAFIP
No. of selected clones per ORF and screen: E ([2]; Bacterial surface display: E, LSA50/6 library in lamB with IC sera 2 (454)): E: 13
Location of identified Immunogenic region [2, 3]: aa 86-99

B4: CRF2305 (protein)
chain: LLTFIAVKPTMTNKIIANTFKITKIFSIRAASDIPRDSNNAVNKITIAAIISIKPPFVPNGFDNAAGNSMPIGFTSPRKFAENPDATKATAIKYSANRAQPATHPKNSPNNTLTQE
No. of selected clones per ORF and screen: C ([2]; LSA250/1 library in fhuA with IC sera 1 (571)): C: 5
Location of identified Immunogenic region [2, 3]: aa 80-116

B5: CRF2341 (protein)
chain: DVLKLSSIKLYVFIIHFLTYFLNLRMRRFLTFLMLAFFFIFQMLNKIKARSPFSQCFHHIIPIRTDLLIYILQ
No. of selected clones per ORF and screen: F [2]: F: 8
Location of identified Immunogenic region [2, 3]: aa 46-55

B6: CRF2349 (protein)
chain: SIIVNTVSKCIKVRLVGISIATTFLNVACGFSKIRRANFSIACADVRSETPIAKTSLDKTSSSPPSILNGQSRSNQIGIFASLNLG
No. of selected clones per ORF and screen: B ([2]; LSA50/6 library in lamB with patient sera 1 (484)): 10
No. of selected clones per ORF and screen: F [2]: 4
Location of identified Immunogenic region [2, 3]: aa 46-67

B7: CRF2729 (protein)
chain: GMKMISISDEINCLICCNCVGLCSFISSAKYIFWISISSNTVAKTSIKRGKFLVTARSIRR
No. of selected clones per ORF and screen: F [2]: F: 3
Location of identified Immunogenic region [2, 3]: aa 40-56

B8: ORF0355 (protein, listed as Staphylococcus epidermidis)
chain: MSKHSATLVIMFLITLLPIFQYQASAHATLEKSTPQQQGVIKDKPEAIKLEFNEPVNTKYSSVTLFDDKGKKIKDLKPITTGWSQTVVFSSEQIVNGTNTIEWHTVSADGHEVGDTFEFSVGKVRLKM
No. of selected clones per ORF and screen: C [2, 4]: C: 5
Location of identified Immunogenic region [2, 5]: aa 63-86

B9: ORF0442 (protein, listed as Staphylococcus epidermidis)
chain: MKKIKTISTLVAGLGIAFLGHTTHADAAENNNQQQSTYNYSTTEVSFSNSGNLYTSGQCTWYVYDKTGGKIGSTWGNANSWATAAQAAGFTVNNTPEEGAIMQSSEGAFGHVAFVESVNNDGSITVSEMNYDGGPFAISTRTISASEASSYNYIHLN
No. of selected clones per ORF and screen: C [2, 4]: C: 38
Location of identified Immunogenic region [2, 5]: aa 60-102

B10: ORF0979 (protein, listed as Staphylococcus epidermidis)
chain: MMIIVMLILSYLIGAFPSGLIIGKLFFKKDIRQYGSGNTGATNSFRVLGRPAGFIVTFLDIFKGFITVFFPLWFPVHADGVISTFFTNGLIVGLFAILGHVYPIYLKFNGGKAVATSAGVVLGVNPILLLILAIIFFSVLKIFKYVSLSSIIAAISCVIGSIIIHDYILLAVSGIVSIILIIRHKSNIVRIFKGEEPKIKWM
No. of selected clones per ORF and screen: A [2]: A: 9,
No. of selected clones per ORF and screen: B [2, 6]: B: 18
Location of identified Immunogenic region [2, 5]: aa 12-51

B11: CRF0192 (protein)
chain: LYHQMVLQFLLNLVQIRYHHPSSFQRKLYQVLQITVLSHHVQVRKFLFLQYLPHVQDHLTLLHQLLFHLVL
No. of selected clones per ORF and screen: C [2, 4]: C: 4
Location of identified Immunogenic region [2, 5]: aa 15-34

B12: CRF0275 (protein)
chain: RILWSSLCVIHKMAIPLSASLNIISSIFFLLCVSKALVASSNNKTSGSYMSCLAMVIRCCSPPDMCSI
No. of selected clones per ORF and screen: B [2, 6]: B: 5
Location of identified Immunogenic region [2, 5]: aa 35-68

B13: CRF0622 (protein)
chain: SRTLRALLLILQTGMMCGLLWSSSEIIIKFFSPLFVNPYTSSYFATSLINSLILISSNSDINSSVILTISTMFPSSPLFTLTKTLSPGSKISSISYVTKRSISALMILS
No. of selected clones per ORF and screen: C [2, 4]: C: 4
Location of identified Immunogenic region [2, 5]: aa 75-99

B14: ORF2098 (protein, listed as Staphylococcus epidermidis)
chain: MIKKNKEELNDMEYLVTQENGTEPPFQNEYWNHFEKGIYVDKLSGKPLFTSEDKFESNCGWPSFSKALNDDEIVELVDKSFGMIRTEVRSEKANSHLGHVFNDGPKEKGGLRYCINSAAIQFIPYDKLEELGYGDLIKHFKK
No. of selected clones per ORF and screen: A [2]: A: 60
Location of identified Immunogenic region [2, 5]: aa 1-57

B15: ORF2260 (protein, listed as Staphylococcus epidermidis)
chain: MARIATKLGYPESNSFVTNTVIEFVLHNEAYPRLYRIKTRDTNLIKISQANEISRQITNGTMTLEEAKYQLEEIYVAKRDSSLPFKGIAAAIIATSFLYLQGGRLVDIITAVLAGTIGYLVVEILDRKLHAQFIPEFIGSLVIGIISVIGHAFVPSGDLATIIIAAVMPIVPGVLITNAIQDLFGGHMLMFTTKSLEALVTAFGIGAGVSSILILV
No. of selected clones per ORF and screen: B [2, 6]: B: 4
Location of identified Immunogenic region [2, 5]: aa 123-142

B16: CRF2248 (protein)
chain: LSSSKALPSTSTFGNTAPNHLGRYHEALPKSFVNAGINVIRTTNASNNTPKPNAIPIDLIALSSWKTNAMNTLNIISAAATITGPLSLIPTRIE
No. of selected clones per ORF and screen: C [2, 4]: C: 30
Location of identified Immunogenic region [2, 5]: aa 74-111

B17: CRF2307 (protein)
chain: SSTACIKSKIFCSYSASPSNAFNAEPAITGTSSPGKSYSLNKSRTSISTNSNNSSSSTMSTLFKNTTNAGTPTLRDNKMCSRVCGIGPSAADTTKIPPSI
No. of selected clones per ORF and screen: A [2]: A: 19
Location of identified Immunogenic region [2, 5]: aa 41-87

B18: ORF2669 (protein, listed as Staphylococcus epidermidis)
chain: MHYLKKVTIYISLLILVSGCGDSKETEIKQNFNKMLNVYPTKNLEDFYDKEGYRDEEFDKDDKGTWIIRSEMTKQPKGKIMTSKGMVLHMNRNTRSTTGYYVIRKISEDNKSEIDDEEKKYPIKMVNNKIIPTQKINDNKLKNEIENFKFFVQYGSFKNSDDYKEGDIEYNPNAPNYSAQYHLSNDDYNIKQLRKRYDIKTKKTPRLLMRGAGDPKGSSVGYKNLEFTFVKNNEENIYFTDSINFNPSKGKSL
No. of selected clones per ORF and screen: A [2]: A: 14,
No. of selected clones per ORF and screen: B [2, 6]: B: 8
Location of identified Immunogenic region [2, 5]: aa 22-81

B19: ORF2671 (protein, listed as Staphylococcus epidermidis)
chain: VKHSKKLLLCISFLLITFFIGGCGFMNKDDGKETEIKQNFNKMLNVYPTKNLENFYDKEGYRDEEFDKDDKGTWIVHSKMVIEPKGKNMESRGMVLFINRNTRTSKGYFIVNEIEKDRKGRPINNKKKYPVKMKNNKIIPTKPISNDKLKKEIENFKFFVQYGNFKDIKNYKDGDISYNPNVPSYSAKYQLSNNEYNVQQLRKRYDIPTKKVPKLLLKGDGDLKGSSVGSKNLEFTFIENKEENIYFTDSVLFSPSEDNES
No. of selected clones per ORF and screen: A [2]: A: 44,
No. of selected clones per ORF and screen: B [2, 6]: B: 14
Location of identified Immunogenic region [2, 5]: aa 23-68

B20: ORF2673 (protein, listed as Staphylococcus epidermidis)
chain: MRYLKKVTIYISLLILVSGCGNGKETEIKQNFNKMLDMYPTKNLEDFYDKEGYRDEEFDKKDKGTWIVGSTMTIEPKGKYMESRGMFLYINRNTRTTKGYYYVRKTTDDSKGRLKDDEKRYPVKMEHNKIIPTKPIPNDKLKKEIENFKFFVQYGDFKNLKDYKDGDISYNPNVPSYSAKYQLSNNDYNVKQLRKRYDIPTNQAPKLLLKGDGDLKGSSIGSKSLEFTFIENKEENIFFSDGVQFTPSEDSES
No. of selected clones per ORF and screen: A [2]: A: 16,
No. of selected clones per ORF and screen: B [2, 6]: B: 3
Location of identified Immunogenic region [2, 5]: aa 23-68

B21: ORF2694 (protein, listed as Staphylococcus epidermidis)
chain: MKHSSKIIVFVSFLILTIFIGGCGFINKEDSKEAEIKQNFNKTLSMYPTKNLEDFYDKEGYRDEEFDKDDKGTWIINSKMIVEPKGEEMEARGMVLRINRNTRTAKGNFIIKRITENNKGIPDVKDKKYPVKMEHNKIIPTKQIKDKKLKKEIENFKFFVQYGNFKNLKDYKDGEISYNPNVPSYSAQYQLNNYDNNVKQLRKRYDIPTNQAPKLLLKGTGDLKGSSVGYKHLEFTFVENKKENIYFTDSINFNPSRGN
No. of selected clones per ORF and screen: A [2]: A: 19,
No. of selected clones per ORF and screen: B [2, 6]: B: 30
Location of identified Immunogenic region [2, 5]: aa 25-82

B22: ORF2695 (protein, listed as Staphylococcus epidermidis)
chain: MRYLKKVTIYISLLILTIFIGGCGFINKEDSKETEIKQNFNKMLNVYPTKNLEDFYDKEGFRDEEFDKGDKGTWIIRSEMTKQPKGKIMTSRGMVLYINRNTRTAKGYFLIDEIKDDNSGRPIENEKKYPVKMNHNKIFPTKPISDDKLKKEIENFKFFVQYGDFKNLKDYKDGEISYNPNVPSYSAQYQLNNNDNNVKQLRKRYDIPTNQAPKLLLKGDGDLKGSSVGSKNLEFTFVENKEENIFFTDAVQFTPSEDDES
No. of selected clones per ORF and screen: A [2]: A: 7
Location of identified Immunogenic region [2, 5]: aa 22-78
